Anti-infective test results gathered from many reports (values: NIAID ChemDB through PubChem).

Common to all: whole-cell or culture tests; agent: HIV-1; read by: RT activity; read-out: EC50

Lines come from different laboratories, so protocols vary.

smiles,mutations,conditions,strain or isolate,cell line,result
O=c1ccn([C@H]2O[C@@H](CO)[C@H](O)C2(F)F)c(=O)[nH]1,,,LAI,PBMC,>100 µM
CN(C)c1ccc(/C=N/NC(=O)Cn2nc(-c3ccccc3)c3c2-c2ccccc2S(=O)(=O)N3C)cc1,,,LAV-1,PBMC,>100 µM
Nc1ncnc2c1ccn2[C@H]1C=C[C@@H](CO)C1,,,LAI,CEMx174 + CEM,2.5 µM
CC(C)C1=C2C3CCC4[C@@]5(C)CC[C@H](OC(=O)CC(C)(C)C(=O)O)C(C)(C)C5CC[C@@]4(C)[C@]3(C)CC[C@@]2(NC(=O)N(C)C)CC1=O,,30% human serum,IIIB,MT-2,<0.199 µM
CN1c2c(-c3ccccc3)nn(CC(=O)N/N=C/c3ccc(O)cc3O)c2-c2ccccc2S1(=O)=O,,,LAV-1,PBMC,3.3 µM
CC(C)C1=C2[C@H]3CC[C@@H]4[C@@]5(C)CC[C@H](OC(=O)CC(C)(C)C(=O)O)C(C)(C)[C@@H]5CC[C@@]4(C)[C@]3(C)CC[C@@]2(NC(=O)Nc2cnn(C)c2)CC1=O,,30% human serum,IIIB,MT-2,<0.199 µM
CCc1cccc2c(C(=O)C(=O)N3CCN(C(=O)c4ccccc4)CC3)c[nH]c12,,,,MT-2,<10 µM
Cc1noc(C(=O)N[C@@]23CC[C@]4(C)C(CCC5[C@@]6(C)CC[C@H](OC(=O)CC(C)(C)C(=O)O)C(C)(C)C6CC[C@]54C)C2=C(C(C)C)C(=O)C3)n1,,30% human serum,IIIB,MT-2,<0.199 µM
O=C(C(=O)N1CCN(C(=O)c2ccc(F)cc2)CC1)c1c[nH]c2ccccc12,,,BRU,MT-2,<10 µM
Cc1nc(CCCCCCC(=O)c2ccccc2)n2nc(NCCCCCCCCNCc3cn([C@H]4C=C[C@@H](CO)O4)c(=O)[nH]c3=O)ccc12,,,LAI,CEM + CEM-SS,0.06 µM
Cc1cc(Cl)nc(N2C(=O)/C(=C\c3ccc(N(C)C)cc3)N=C2c2ccccc2)n1,,,,,52.47 µg/mL
O=C(C(=O)N1CCN(C(=O)c2ccccc2)CC1)c1c[nH]c2cc(Cl)ccc12,,,BRU,MT-2,<10 µM
CC(C)C1=C2C3CCC4[C@@]5(C)CC[C@H](OC(=O)CC(C)(C)C(=O)O)C(C)(C)C5CC[C@@]4(C)[C@]3(C)CC[C@@]2(NC(=O)OC[C@@H]2CCCN2C)CC1=O,,30% human serum,IIIB,MT-2,<0.199 µM
COc1ccc(/C=C2/N=C(C)N(c3nc(C)cc(=O)[nH]3)C2=O)cc1,,,,,51.6 µg/mL
Nc1ccn([C@@H]2C=C(F)[C@H](CO)O2)c(=O)n1,,,LAI,PBMC,<0.67 µM
CCCc1cc(=O)oc2c3c(c4c(c12)OC(C)(C)CC4)O[C@@H](C)[C@H](C)[C@@H]3O,,,SLKA(SI),PBMC,0.3 µM
CC(C)C1=C2C3CCC4[C@@]5(C)CC[C@H](OC(=O)CC(C)(C)C(=O)O)C(C)(C)C5CC[C@@]4(C)[C@]3(C)CC[C@@]2(NC(=O)N[C@@H](C)C(F)(F)F)CC1=O,,30% human serum,IIIB,MT-2,<0.199 µM
Cc1cc(Cl)nc(N2C(=O)/C(=C\c3ccccc3O)N=C2c2ccccc2)n1,,,,,46.43 µg/mL
FC(c1cccnc1)C(F)(F)c1nc(-c2ccccc2)no1,,,LAI,CEM + CEM-SS,>100 µM
O=C(C(=O)N1CCN(C(=O)c2ccc(F)c(F)c2)CC1)c1c[nH]c2ccccc12,,,BRU,MT-2,>10 µM
CCCCCCCCCCCCCCCCOP(=O)(OCCO[C@@H]1O[C@H](CO)[C@@H](O)[C@H](O)[C@@H]1O)OC[C@H]1O[C@@H](n2cc(C)c(=O)[nH]c2=O)C[C@@H]1N=[N+]=[N-],,7 d,LAV-Bru,CEM,<0.2 µM
CN1c2c(-c3ccccc3)nn(CC(=O)N/N=C/c3c(Cl)cccc3Cl)c2-c2ccccc2S1(=O)=O,,,LAV-1,PBMC,>100 µM
Cc1cn([C@H]2O[C@@H](CO)[C@H](O)C2(F)F)c(=O)[nH]c1=O,,,LAI,PBMC,>100 µM
O=C(c1ccc(F)cc1)C(F)(F)c1nc2ccccc2o1,,,LAI,CEM + CEM-SS,>100 µM
COc1ccc(/C=N/NC(=O)Cn2nc(-c3ccccc3)c3c2-c2ccccc2S(=O)(=O)N3C)c(OC)c1,,,LAV-1,PBMC,99.8 µM
Cc1nc(CCCCCCC(=O)c2ccccc2)n2nc(NCCCCCCCCCCCCN)ccc12,,,LAI,CEM + CEM-SS,7.2 µM
COC(=O)N[C@@]12CC[C@]3(C)[C@H](CC[C@@H]4[C@@]5(C)CC[C@H](OC(=O)CC(C)(C)C(=O)O)C(C)(C)[C@@H]5CC[C@]43C)C1=C(C(C)C)C(=O)C2,,30% human serum,IIIB,MT-2,<0.199 µM
C[C@@H]1CCO[C@H]2Cn3cc(C(=O)NCc4ccc(F)cc4F)c(=O)c(O)c3C(=O)N12,E138K/R263K,,NL4-3,CBMC,0.0027 µM
Cc1cn([C@H]2C[C@H](N=[N+]=[N-])[C@@H](COP(=O)(O)OCCO[C@H]3O[C@H](CO)[C@@H](O)[C@H](O)[C@@H]3O)O2)c(=O)[nH]c1=O,,7 d,LAV-Bru,U-937,<25 µM
Cc1nc(CCCCCCC(=O)c2ccccc2)n2nc(NCCCCCCNCc3cn([C@H]4C=C[C@@H](CO)O4)c(=O)[nH]c3=O)ccc12,,,LAI,CEM + CEM-SS,0.05 µM
COc1cc(-c2ccc(N=Nc3ccc4c(S(=O)(=O)O)cc(S(=O)(=O)O)c(N)c4c3O)c(OC)c2)ccc1N=Nc1ccc2c(S(=O)(=O)O)cc(S(=O)(=O)O)c(N)c2c1O,,,MN,CEM + CEM-SS,0.9 µM
CC(C)C1=C2C3CCC4[C@@]5(C)CC[C@H](OC(=O)CC(C)(C)C(=O)O)C(C)(C)C5CC[C@@]4(C)[C@]3(C)CC[C@@]2(NC(=O)NC2CCC(F)(F)CC2)CC1=O,,30% human serum,IIIB,MT-2,<0.199 µM
O=c1[nH]cnc2c1ncn2[C@@H]1O[C@@H](CO)[C@H](O)C1(F)F,,,LAI,PBMC,>100 µM
Cc1nc(CCCCCCC(=O)c2ccccc2)n2nc(NCCCCCCN)ccc12,,,IIIB,MT-4,>10 µM
CC(C)C1=C2C3CCC4[C@@]5(C)CC[C@H](OC(=O)CC(C)(C)C(=O)O)C(C)(C)C5CC[C@@]4(C)[C@]3(C)CC[C@@]2(NC(=O)OC2CCSCC2)CC1=O,,30% human serum,IIIB,MT-2,<0.199 µM
Cc1cc(Cl)nc(N2C(=O)/C(=C\c3ccccc3)N=C2c2ccccc2)n1,,,,,52.28 µg/mL
O=C(C(=O)N1CCN(C(=O)c2ccccc2O)CC1)c1c[nH]c2ccccc12,,,BRU,MT-2,<10 µM
C/C=C1/N=C(C)N(c2nc(C)cc(Cl)n2)C1=O,,,,,67.56 µg/mL
FC(c1ccc(C(F)(F)F)cc1)C(F)(F)c1nc(-c2ccccc2)no1,,,LAI,CEM + CEM-SS,>100 µM
Nc1nc2c(ccn2[C@H]2C=C[C@@H](CO)C2)c(=O)[nH]1,,,LAI,CEM + CEM-SS,15 µM
O=c1ccn([C@@H]2O[C@@H](CO)[C@H](O)C2(F)F)c(=O)[nH]1,,,LAI,PBMC,>100 µM
COc1ncc(OC)c2c(C(=O)C(=O)N3CCN(C(=O)c4ccccc4)CC3)c[nH]c12,,,RF,MT-2,>2 µM
Cc1ccc(NC(=O)CN2CCN(Cc3nc(-c4ccc(F)cc4)no3)CC2)cc1,,,92BR025,PBMC,7.8 µM
CC1=N/C(=C/c2ccccc2)C(=O)N1c1nc(C)cc(Cl)n1,,,,,61.71 µg/mL
CCCCCCCCCCCCCCCCOP(=O)(OC[C@H]1OC(O)[C@@H](O)[C@@H](O)[C@@H]1O)OC[C@H]1O[C@@H](n2cc(C)c(=O)[nH]c2=O)C[C@@H]1N=[N+]=[N-],,15 d,LAV-Bru,CEM,<0.2 µM
Fc1ccc(C(F)(F)C(F)(F)c2nc3ccccc3o2)cc1,,,LAI,CEM + CEM-SS,88 µM
COc1ccc(/C=N/NC(=O)Cn2nc(-c3ccccc3)c3c2-c2ccccc2S(=O)(=O)N3C)c(OC)c1OC,,,LAV-1,PBMC,>100 µM
O=c1[nH]c(=O)n([C@H]2C=C[C@@H](CO)O2)cc1CO,,,IIIB,PBMC,0.14 µM
O=C(O)CN(CCN(CC(=O)O)Cc1cnc2c(O)cccc2c1)CC(=O)O,,,HXB2,MT-4,9.6 µM

Repeating the final 4 entries:

smiles | mutations | conditions | strain or isolate | cell line | result
Fc1ccc(C(F)(F)C(F)(F)c2nc3ccccc3o2)cc1 |  |  | LAI | CEM + CEM-SS | 88 µM
COc1ccc(/C=N/NC(=O)Cn2nc(-c3ccccc3)c3c2-c2ccccc2S(=O)(=O)N3C)c(OC)c1OC |  |  | LAV-1 | PBMC | >100 µM
O=c1[nH]c(=O)n([C@H]2C=C[C@@H](CO)O2)cc1CO |  |  | IIIB | PBMC | 0.14 µM
O=C(O)CN(CCN(CC(=O)O)Cc1cnc2c(O)cccc2c1)CC(=O)O |  |  | HXB2 | MT-4 | 9.6 µM

ECn: concentration that inhibits the pathogen or its effect by n%. Blank or dashed fields: not listed here.